We go through four compounds from PMC7232442, “Biofilm Eradication by Symmetrical Selenoesters for Food-Borne Pathogens” (Microorganisms, 2020).

This data set has as its system S. aureus MRSA. The data set can be described thus: Biofilm formation using crystal violet. Conditions: ½ MIC, 48 h, non-treated 1.3 ± 0.1 AU. Type of data set: cell-based, Staphylococcus aureus. The protocol: The anti-biofilm effect of the tested compounds against S. aureus strains and wild-type S. Typhimurium SE01 was measured using crystal violet (CV; 0.1% (v/v)). This dye is used to detect the total biofilm biomass formed. Overnight cultures were diluted to OD of 0.1 at 600 nm in TSB medium. Then, the bacterial cultures were added to 96-well microtiter plates and the compounds were added at ½ MIC concentration. The final volume was 200 μL in each well. The microtiter plates were incubated at 30 °C for 48 h with gentle agitation (100 rpm). After the incubation period, TSB medium was discarded, and the plates were washed with tap water to remove unattached cells. Then 200 μL crystal violet was added to the wells and incubated for 15 min at room temperature. Then, CV was removed from the wells and the plates were washed again with tap water, and 200 μL of 70% ethanol was added to the wells. Finally, the biofilm formation was determined by measuring the OD at 600 nm using Multiscan EX ELISA plate reader (Thermo Labsystems, Cheshire, WA, USA). The anti-biofilm effect of compounds was expressed in the percentage (%) of decrease in biofilm formation.

With `N#CC[Se]C(=O)c1ccc(C(=O)[Se]CC#N)cc1` [Se-C1], the “Biofilm absorbance (AU)” value was found to be 0.72 ± 0.15 AU.

As to `COC(=O)C[Se]C(=O)c1cc(C(=O)[Se]CC(=O)OC)cc(C(=O)[Se]CC(=O)OC)c1` [Se-E3], the “Biofilm absorbance (AU)” value was 0.32 ± 0.07 AU.

In the case of `CC(=O)C[Se]C(=O)c1ccc(C(=O)[Se]CC(C)=O)cc1` [Se-K1], the “Biofilm absorbance (AU)” value came out at 0.45 ± 0.17 AU.

Consider `CC(=O)C[Se]C(=O)c1cc(C(=O)[Se]CC(C)=O)cc(C(=O)[Se]CC(C)=O)c1` [Se-K3], for which the “Biofilm absorbance (AU)” value is 0.16 ± 0.06 AU.
